The numbers were not newly measured in PMC7076857 (Toxins, 2020), which cites them from elsewhere.

pIC50: −log10 of the molar value. Read-outs that look alike come from different tables or passages of the source.

In series [1] the test system is PP1. As to conditions: read-out: IC50 in PP1 assay; 2 and 3 both had the same IC50 value; ref 6 (Park et al.); cited from earlier work.
The subject of series [2] is PP1. Particulars: read-out: IC50 in PP1 assay; ref 7 (Matthiensen et al.); cited from earlier work.

For [D-Leu^1]MC-LR, the results for the pIC50 with PP1 [1] and in the series on PP1 [2] were 9.52 and 8.36, respectively.
